The data set addresses hsp90-a (UniProt P82995). Description: pull-down. The conditions noted are these: PNA strand, Cys-Bpa at N-term, Lys-amide at C-term, disulfide to TP10; protein in cells.

From patent publication US20080199854 come the findings set out here.

The exact form of at least one protein or probe is not confirmed. Where cells or extracts were used, other partners may take part.

As for “AAGCGCGGCTGCTCTAGCAGAA [Ank mRNA 5'-UTR region with annealed Ank 3 PNA]”, the binding result is on record as “binds”. On to “TACGAAACCTCTAAATCAAGG [Ank mRNA 3' region with annealed Ank 1 PNA]”, for which the binding result was “binds”.
